These results are taken from paper PMC7329128.

To fix the notation:
B1: myc-tagged human PDGFRα (wild type) on Expi293F cells, P16234-1 L137K (protein)
chain: QLSLPSILPNENEKVVQLNSSFSLRCFGESEVSWQYPMSEEESSDVEIRNEENNSGLFVTVLEVSSASAAHTGLYTCYYNHTQTEENELEGRHIYIYVPDPDVAFVPLGMTDYKVIVEDDDSAIIPCRTTDPETPVTLHNSEGVVPASYDSRQGFNGTFTVGPYICEATVKGKKFQTIPFNVYALKATSELDLEMEALKTVYKSGETIVVTCAVFNNEVVDLQWTYPGEVKGKGITMLEEIKVPSIKLVYTLTVPEATVKDSGDYECAARQATREVKEMKKVTISVHEKGFIEIKPTFSQLEAVNLHEVKHFVVEVRAYPPPRISWLKNNLTLIENLTEITTDVEKIQEIRYRSKLKLIRAKEEDSGHYTIVAQNEDAVKSYTFELLTQVPSSILDLVDDHHGSTGGQTVRCTAEGTPLPDIEWMICKDIKKCNNETSWTILANNVSNIITEIHSRDRSTVEGRVTFAKVEETIAVRCLAKNLLGAENRELKLVAPTLRSELTVAAAVLVLLVIVIISLIVLVVIWKQKPRYEIRWRVIESISPDGHEYIYVDPMQLPYDSRWEFPRDGLVLGRVLGSGAFGKVVEGTAYGLSRSQPVMKVAVKMLKPTARSSEKQALMSELKIMTHLGPHLNIVNLLGACTKSGPIYIITEYCFYGDLVNYLHKNRDSFLSHHPEKPKKELDIFGLNPADESTRSYVILSFENNGDYMDMKQADTTQYVPMLERKEVSKYSDIQRSLYDRPASYKKKSMLDSEVKNLLSDDNSEGLTLLDLLSFTYQVARGMEFLASKNCVHRDLAARNVLLAQGKIVKICDFGLARDIMHDSNYVSKGSTFLPVKWMAPESIFDNLYTTLSDVWSYGILLWEIFSLGGTPYPGMMVDSTFYNKIKSGYRMAKPDHATSEVYEIMVKCWNSEPEKRPSFYHLSEIVENLLPGQYKKSYEKIHLDFLKSDHPAVARMRVDSDNAYIGVTYKNEEDKLKDWEGGLDEQRLSADSGYIIPLPDIDPVPEEEDLGKRNRHSSQTSEESAIETGSSSSTFIKREDETIEDIDMMDDIGIDSSDLVEDSFL
B2: myc-tagged human PDGFRα (wild type) on Expi293F cells, P16234-1 L137Q (protein)
chain: B1 chain with K114Q
B3: myc-tagged human PDGFRα (wild type) on Expi293F cells, P16234-1 V242K (protein)
chain: B1 chain with K114L, V219K
B4: myc-tagged human PDGFRα (wild type) on Expi293F cells, P16234-1 V242T (protein)
chain: B1 chain with K114L, V219T
B5: myc-tagged human PDGFRα (wild type) on Expi293F cells, P16234-1 Y206S (protein)
chain: B1 chain with K114L, Y183S

Residue numbers refer to the chain shown, from its start. In names and notes the source's numbering stands.

One test has as its target soluble HCMV glycoprotein trimer gH/gL/gO-sfGFP, strain Merlin. Put plainly: flow cytometry on cells. To be noted: chain shown with the change; absence of PDGFs; Merlin gH/gL/gO-sfGFP containing medium (1/3 dilution); parent: est. 1.0; read off a plot. On the technique in general: In flow cytometry, cells or beads pass a laser one at a time.
For the molecule B1, the ratio to parent worked out at 0.85.
Take B2: the ratio to parent was 0.94.
Same read-out and setting: the same measure for B3: 0.94; for B4: 0.8; for B5: 0.86.

Staying with this test, now noted: chain shown with the change; presence of PDGFs (100 nM PDGF); Merlin gH/gL/gO-sfGFP containing medium (1/3 dilution); parent: est. 0.23; read off a plot.
Regarding B1, the ratio to parent is 0.9.
On to B2, for which the ratio to parent stood at 0.65.
Consider B3, for which the ratio to parent turned out to be 0.94.
As to B4, the ratio to parent is 0.74.
As for B5, the ratio to parent came out at 0.83.
